Laboratory results: PubChem BioAssay AID624099 (ICCB-Longwood, 2012)
This is a random part of about 21,000 reagents tested. 497 of them (2.4%) were called active. 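Higher z means weaker E2 silencing; only reporter increases were scored, and knock-downs that hurt cell survival may mask genuine repressor factors.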 Reagents against one gene are numbered here.

- Purpose: 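Human genes that papillomavirus E2 requires to repress the HPV18 LCR promoter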 (primary screen)
- Cell system: human C33A cervical carcinoma cells (HPV-negative) stably expressing BPV1 E2 and an HPV18 LCR luciferase reporter
- Reagents: siRNA pool against human genes, 40 nM
- Timing: 72 h
- Measurement: 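HPV18 LCR reporter light per well, converted to plate-wise z-scores that exclude control wells, and averaged over triplicate plates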
- Reading the numbers: mean z-score and z-score: higher = stronger reporter signal, weaker E2 silencing
- Rule for the call: 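Hit if mean z-score reaches 2 and two or more of three replicate z-scores also reach 2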

target	reagent no.	mean z-score	z-score, replicate A	z-score, replicate B	z-score, replicate C	outcome
FNDC1 (fibronectin type III domain containing 1)	1	0.73	0.45	0.9	0.84	inactive
FAM43A (family with sequence similarity 43 member A)	1	-0.46	-0.67	-0.51	-0.2	inactive
MRPL13 (mitochondrial ribosomal protein L13)	1	-0.63	-0.78	-0.46	-0.64	inactive
MICU2 (mitochondrial calcium uptake 2)	1	0.14	0.32	0.2	-0.08	inactive
NSMCE3 (NSE3 component of SMC5/6 complex)	1	0.85	1.12	0.91	0.51	inactive
KAT5 (lysine acetyltransferase 5)	1	1.64	2.01	1.42	1.49	inactive
S100A7P3 (S100 calcium binding protein A7 pseudogene 3)	1	0.04	0.44	-0.29	-0.04	inactive
NR4A3 (nuclear receptor subfamily 4 group A member 3)	1	1.57	1.68	1.58	1.44	inactive
ATP1B3 (ATPase Na+/K+ transporting subunit beta 3)	1	-0.85	-0.59	-0.8	-1.15	inactive
RBM47 (RNA binding motif protein 47)	1	2.68	2.36	2.51	3.16	active
SYNE3 (spectrin repeat containing nuclear envelope family member 3)	1	-1.72	-1.58	-2.09	-1.48	inactive
SYNE3 (spectrin repeat containing nuclear envelope family member 3)	2	-0.26	-0.27	-0.01	-0.5	inactive
PDSS2 (decaprenyl diphosphate synthase subunit 2)	1	-0.04	-0.31	0.23	-0.03	inactive
EPM2A (EPM2A glucan phosphatase, laforin)	1	-0.2	-0.07	-0.26	-0.27	inactive
PRSS27 (serine protease 27)	1	-0.01	-0.05	-0.23	0.25	inactive
AKAP9 (A-kinase anchoring protein 9)	1	-0.09	-0.37	0.09	0.02	inactive
ASTILCS	1	-1	-0.76	-1.14	-1.12	inactive
DKFZp566H0824 (retired record)	1	1.19	1.13	1.02	1.42	inactive
SPATA31D3 (SPATA31 subfamily D member 3)	1	1.79	1.47	2.08	1.82	inactive
SSBP2 (single stranded DNA binding protein 2)	1	-0.13	-0.09	-0.19	-0.12	inactive
POLR2J2 (RNA polymerase II subunit J2)	1	-1.91	-1.89	-2.05	-1.77	inactive
PLA2G4D (phospholipase A2 group IVD)	1	1.19	1.16	1.07	1.33	inactive
VN1R10P (vomeronasal 1 receptor 10, pseudogene)	1	-0.62	-0.73	-0.26	-0.86	inactive
AKAP6 (A-kinase anchoring protein 6)	1	0.5	0.41	0.54	0.57	inactive
CA4 (carbonic anhydrase 4)	1	0.1	-0.08	0.1	0.27	inactive
TRIL (TLR4 interactor with leucine rich repeats)	1	0.52	0.31	0.44	0.8	inactive
NEK9 (NIMA related kinase 9)	1	0.31	0.25	0.31	0.35	inactive
FGF6 (fibroblast growth factor 6)	1	-0.64	-0.64	-0.62	-0.67	inactive
LINC01270 (long independently transcribed non-coding RNA 1270)	1	-0.54	-0.72	-0.36	-0.56	inactive
FMR1 (fragile X messenger ribonucleoprotein 1)	1	0.03	0.59	-0.38	-0.13	inactive
SNORC	1	1.31	1.52	1.41	1	inactive
AK4 (adenylate kinase 4)	1	-1.03	-0.8	-1.19	-1.09	inactive
AK4 (adenylate kinase 4)	2	0.87	0.34	0.91	1.36	inactive
RPL26 (ribosomal protein L26)	1	-1.57	-1.54	-1.6	-1.56	inactive
KIF23 (kinesin family member 23)	1	-0.06	-0.02	0	-0.16	inactive
C11orf52 (chromosome 11 open reading frame 52)	1	-0.13	-0.04	-0.3	-0.03	inactive
PERM1 (PPARGC1 and ESRR induced regulator, muscle 1)	1	-0.29	-0.1	-0.41	-0.35	inactive
ZNF707 (zinc finger protein 707)	1	0.62	0.71	0.7	0.44	inactive
RHCE (Rh blood group CcEe antigens)	1	0.3	0.28	0.48	0.14	inactive
TMTC3 (transmembrane O-mannosyltransferase targeting cadherins 3)	1	-0.16	-0.48	0.25	-0.25	inactive
KRTAP10-2 (keratin associated protein 10-2)	1	-0.54	-0.35	-0.7	-0.58	inactive
LOC402436 (retired record)	1	0.3	0.38	0.3	0.23	inactive
LAP3P2 (leucine aminopeptidase 3 pseudogene 2)	1	-0.25	-0.51	-0.09	-0.15	inactive
MID1IP1 (MID1 interacting protein 1)	1	-0.56	-0.17	-0.54	-0.99	inactive
ALKBH7 (alkB homolog 7, RNA demethylase)	1	-0.33	-0.54	-0.16	-0.29	inactive
KRABD5 (KRAB domain containing 5)	1	0.01	-0.02	-0.16	0.23	inactive
HIF3A (hypoxia inducible factor 3 subunit alpha)	1	-0.49	-0.64	-0.53	-0.31	inactive
PCDHAC2 (protocadherin alpha subfamily C, 2)	1	-0.71	-0.66	-0.76	-0.72	inactive
LOC400134 (retired record)	1	1.28	0.98	1.27	1.59	inactive
TMPRSS13 (transmembrane serine protease 13)	1	-0.67	-0.75	-0.78	-0.47	inactive
H2BC1 (H2B clustered histone 1)	1	0.12	-0.03	0.3	0.09	inactive
PCNX3 (pecanex 3)	1	0.12	0.44	0.06	-0.13	inactive
CKB (creatine kinase B)	1	0.49	0.51	0.2	0.76	inactive
SLC8A3	1	-0.38	-0.05	-0.56	-0.53	inactive
TUBGCP5 (tubulin gamma complex component 5)	1	1.09	1.16	1.29	0.82	inactive
CKM (creatine kinase, M-type)	1	-1.39	-1.31	-1.51	-1.35	inactive
LINC03122 (long independently transcribed non-coding RNA 3122)	1	0.39	0.43	0.25	0.49	inactive

Individual results from the entries so far.
For “z-score, replicate C”, RHCE (Rh blood group CcEe antigens) has 0.14
Value of PLA2G4D (phospholipase A2 group IVD) under “z-score, replicate A”: 1.16
ASTILCS, mean z-score → -1
Value of RBM47 (RNA binding motif protein 47) in “outcome”: active
ZNF707 (zinc finger protein 707), z-score, replicate B: 0.7
CKB (creatine kinase B), z-score, replicate C = 0.76
